# Measurements: paper PMC9082315 (Frontiers in Immunology, 2022)
# B1: Nb 2.15, monomeric nanobody (VHH)
# VHH: QVQLVESGGGSVQAGGSLKLSCAASGYASWARKCIGWFRQAPGQEREGVAAIFDFDGSTYYSDSVKGRFTISGDNAKNTVSLQMNSLLPKDTAVYYCTVAFGTCDNWYRGRGDYWGQGTQVTVSS
# B2: 2.1 Nb (VHH)
# VHH: QVQLVESGGGSVQAGGSLRLSCAAFGATISSAHMGWFRQAPGKEREGVAFRYTDGSSTYYTTSVRGRFTISQDNAKNTVYLQMNSLKPEDTAMYYCASNPSWGRLVGGQYNNWGQGTQITVSS
# B3: 2.15 Nb (VHH)
# VHH: B1 VHH
# B4: 1.16 Nb (VHH)
# VHH: QVQLVESGGGSVQAGGSLRLSCAASGNTSKRKCVGWFRRAPGKEREGVTLIYTVGGSTVYADSVKGRFTISQDNAKDTVYLQMNSLKPEDSAMYYCAAESWGRQCNLETHRFTFWGQGTQVTVSS
# B5: 2.11 Nb (VHH)
# VHH: QVQLVESGGGSVQAGGSLRLSCAASGDASNRKCVSWFRRAPGKEREGVALIFPVGSSTAYADSVKGRFTISQDSAKDTVYLQMNNLKPEDSGTYYCAAVSWGGRCNLETQTVTFWGQGTQVTVSS
# Biological target: monomeric SARS-CoV-2 RBD (S residues 332-534) with Flag peptide and 8xHis-tag (SARS-CoV-2, WA1 (Wuhan-like), UniProt P0DTC2, biotin (only in the flow cytometry on bacteria))
# Experiment: SPR
# Details: both partners purified
row,Binder,Kd
1,B1,~0.3 nM

# Biological target: monomeric SARS-CoV-2 RBD with Flag peptide and 8xHis-tag (RBD-FH) (SARS-CoV-2, WA1 (Wuhan-like), UniProt P0DTC2)
# Experiment: SPR
# Details: both partners purified
Binder,koff,kon
B2,0.00233 s⁻¹,1.34e+06 M⁻¹ s⁻¹
B3,0.000778 s⁻¹,2.02e+06 M⁻¹ s⁻¹
B4,0.00705 s⁻¹,1.96e+06 M⁻¹ s⁻¹
B5,0.00497 s⁻¹,2.29e+06 M⁻¹ s⁻¹
